Anti-infective test results gathered from many reports (values: NIAID ChemDB through PubChem).

All rows: growth or infection tests; organism: Human cytomegalovirus; method: cytopathic effect; measure: EC50

An empty or dashed field is not shown. ECn is the concentration giving n% inhibition of infection, replication or growth. Lines come from different laboratories, so protocols vary.

| smiles | cell line | strain | result |
|---|---|---|---|
| CC1(C)C(=O)NN=C1c1cccc(NC(=O)Nc2ccc(F)c(F)c2)c1 | NHDF |  | 0.5 µM |
| OC[C@H]1O[C@H](c2cc(I)c(F)cc2F)C[C@@H]1O | HEL | AD169 | 111 µM |
| Cc1ccn2c(CSCc3ccccc3)c(-c3cccs3)nc2c1 | HEL | AD169 | 2.7 µg/mL |
| CCO[C@@H]1[C@@H](OCC)[C@H](Cc2ccccc2)O[C@@H]2CO[C@@H](c3ccc(Cl)cc3)O[C@@H]12 | HFF |  | >20 µg/mL |
| Cc1cc([C@@H]2C[C@H](O)[C@@H](CO)O2)c(F)cc1F | HEL | DAVIS | >200 µM |
| Nc1nc(N)c2ncn(C=C3CC3CO)c2n1 | HFF | AD169 | 11.2 µM |
| CCCCCCCC#Cc1c[nH]c(=O)[nH]c1=O | HEL | DAVIS | >80 µM |
| O=c1[nH]c(=O)n([C@H]2C[C@H](O)[C@@H](CO)O2)cc1CCCl | HFF | AD169 | 0.06 µM |
| COC(=O)[C@H](C)NP(=O)(OC[C@H]1C/C1=C/n1cnc2c(N)nc(N)nc21)Oc1ccccc1 | HFF | AD169 | 11.2 µM |
| Nc1cc([C@H]2C[C@H](O)[C@@H](CO)O2)c(F)cc1F | HEL | DAVIS | >200 µM |
| Cc1cccn2c(CSCc3ccccc3)cnc12 | HEL | AD169 | 0.12 µg/mL |
| CC[C@]1(Br)C(=O)NC(=O)N([C@H]2C[C@H](O)[C@@H](CO)O2)[C@@H]1OC | HFF | AD169 | >50 µM |
| Nc1nc2c(ncn2COC(CO)CO)c(=O)[nH]1 | HFF | DAVIS | 1.6 µM |
| Cc1ccn2c(CSCc3ccccc3)c(-c3cccnc3)nc2c1 | HEL | DAVIS | 50 µg/mL |
| Cc1cn([C@@H]2O[C@@H](CO)[C@H](O)[C@H]2O)c(=O)[nH]c1=O | MRC-5 | AD169 | >1000 µM |
| Cc1ccn2c(CSCc3ccccc3)c(-c3ccccn3)nc2c1 | HEL | AD169 | 0.6 µg/mL |
| Cc1cn(CC[C@H](O)CCO)c(=O)[nH]c1=O | HEL | DAVIS | >400 µg/mL |
| Nc1ncnc2ncn(/C=C3/C(F)C3(CO)CO)c12 | HFF | AD169 | >60 µM |
| Nc1ccn(C(CF)CCCO)c(=O)n1 | HEL | DAVIS | >50 µg/mL |
| Nc1nc(N)c2nnn(C[C@@H](CO)OCP(=O)(O)O)c2n1 | HEL | DAVIS | >100 µg/mL |
| CCCCCCCC/C=C/CCCCCCCC(=O)O | HEL | AD169 | >100 µM |
| Nc1nc(NC2CC2)c2ncn(C=C3CC3CO)c2n1 | HFF | AD169 | 2 µM |
| CC1(C)C(=O)NN=C1c1cccc(NC(=O)Nc2ccc(F)c(Cl)c2)c1 | NHDF |  | 0.4 µM |
| Cc1ccc(S(=O)(=O)n2cc(I)c(=O)[nH]c2=O)cc1 | HEL | AD169 | >80 µM |
| Cc1cc([C@@H]2C[C@H](O)[C@@H](CO)O2)c(Cl)cc1F | HEL | AD169 | >200 µM |
| Cc1ccn2c(CSCCc3ccccc3)c(-c3cccs3)nc2c1 | HEL | AD169 | 1.1 µg/mL |
| CCCCCCC#Cc1c[nH]c(=O)[nH]c1=O | HEL | AD169 | >400 µM |
| Nc1ccn(CC[C@H](O)CCO)c(=O)n1 | HEL | AD169 | >400 µg/mL |
| Nc1ccn(CCCC(O)CF)c(=O)n1 | HEL | AD169 | 15 µg/mL |
| Cc1ccn2c(CSCc3ccccc3)c(C34CC5CC(CC(C5)C3)C4)nc2c1 | HEL | AD169 | >0.5 µg/mL |
| N#CC1C(c2ccc(Cl)cc2)Nc2ccccc2S1(=O)=O | HEL | DAVIS | 2.8 µg/mL |
| O=C(Nc1cccc(Cl)c1)Nc1cccc(-c2n[nH]c(=O)n2C2CCCCC2)c1 | NHDF |  | 0.3 µM |
| Nc1nc(Cl)c2ncn(/C=C3/C[C@H]3CO)c2n1 | HFF | AD169 | 5.4 µM |
| Nc1ncnc2c1ncn2CC[C@H](O)CCO | HEL | DAVIS | >400 µg/mL |
| Cc1oc(NC(=O)C(F)(F)F)c(S(=O)(=O)c2ccc(Cl)cc2)c1C | HEL | DAVIS | 10 µg/mL |
| Cc1cn(CCCC(O)CF)c(=O)[nH]c1=O | HEL | DAVIS | >50 µg/mL |
| O=c1ccn([C@H]2C[C@@H](O)[C@H](CO)O2)c(=O)[nH]1 | MRC-5 | AD169 | >100 µM |
| Cc1cc(Cl)ccc1NC(=O)Nc1cccc(-c2n[nH]c(=O)n2C(C)c2ccccc2)c1 | NHDF |  | 0.5 µM |
| Cc1c(S(=O)(=O)c2ccc(Cl)cc2)c(NC(=O)C(F)(F)F)n(Cc2ccccc2)c1C | HEL | AD169 | 1.3 µg/mL |
| Nc1ncnc2c1ncn2[C@@H]1O[C@@H](CO)[C@H](O)[C@H]1O | MRC-5 | AD169 | >1000 µM |
| CCCCCCCCC#Cc1c[nH]c(=O)[nH]c1=O | HEL | DAVIS | >400 µM |
| CCCCCCCC/C=C/CCCCCCCC(=O)OCC(CO)OCn1cnc2c(=O)[nH]c(N)nc21 | HEL | AD169 | 4.5 µM |
| CCCCCCCc1cc2cnc(=O)[nH]c2o1 | HEL | AD169 | >400 µM |
| OC[C@H]1O[C@H](c2ccc(F)cc2F)C[C@@H]1O | HEL | AD169 | >200 µM |
| Cc1ccn2c(CSCc3ccccc3)c(-c3ccncc3)nc2c1 | HEL | DAVIS | >5 µg/mL |
| COC(=O)C(Cc1c[nH]c2ccccc12)NP(=O)(O)OCC1C/C1=C/n1cnc2c(N)ncnc21 | HFF | AD169 | 5.2 µM |
| OC[C@H]1O[C@@H](c2cc(C(F)(F)F)c(F)cc2F)C[C@@H]1O | HEL | DAVIS | >200 µM |
| CCCCCCCCC#Cc1cn(S(=O)(=O)c2ccc(C)cc2)c(=O)[nH]c1=O | HEL | AD169 | >80 µM |
| O=[N+]([O-])c1cc([C@H]2C[C@H](O)[C@@H](CO)O2)c(F)cc1F | HEL | DAVIS | 100 µM |
| Cc1cc(Cl)ccc1NC(=O)Nc1cc(Br)cc(C2=NNC(=O)C2(C)C)c1 | NHDF |  | 2.1 µM |